PubChem BioAssay AID504761 – Drosophila RNAi Screening Center, 2011
The screen tested about 22,000 reagents; this is a random part of those with a known target gene and a result. In the full data, 116 (0.52%) got an active call. 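Calls depend on retest data that are not deposited; infection was ranked per plate without normalising between plates; the unit of the infection score is not given.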 Raw values are not corrected between plates. Names joined by + are all predicted targets of the reagent. Not stated in the record: the amount of reagent, the time to read-out.

- Aim: 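Genome-wide fly cell screen for genes dengue virus requires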 (primary screen)
- Cells: D.Mel-2 cells from Drosophila
- Reagents: long dsRNA against Drosophila genes
- Treatment: infection with dengue virus type 2; dose and infection time not stated
- Read-out: 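Cells stained for dengue envelope protein and imaged; percent of infected cells per well on duplicate plates, ranked by infection, with stained nuclei counted for cell number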
- Reading the numbers: infection score: higher = more virus-infected cells; cell count: higher = more cells in the well
- Hit rule: 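Low infection ranks in the two replicates (chance level up to 0.065) followed by a retest with a 1.5-fold or larger significant decrease, p below 0.05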
- Meaning of the calls: active = confirmed: knock-down lowers infection; inactive = not picked or not confirmed

gene	amplicon	infection score, replicate 1	infection score, replicate 2	cell count, replicate 1	cell count, replicate 2	outcome
CG15022	DRSC08476	0.62	2.13	6098	5723	inactive
CG15022	DRSC25079	5.42	6.59	5995	5947	inactive
CG31741	DRSC02887	5.17	1.58	6360	6568	inactive
CG2070	DRSC06814	2.84	12	739	6872	inactive
CG32683	DRSC17990	12.6	8.91	1241	2357	inactive
CG32683	DRSC18232	8.51	8.67	5679	5884	inactive
CG32683	DRSC18233	18.3	5.62	3516	997	inactive
CG32683	DRSC29475	5.6		928	379	inactive
tmod	DRSC14314			427	310	inactive
tmod	DRSC15076		3.95	376	6325	inactive
tmod	DRSC17062	1.7	2.2	5520	6314	inactive
tmod	DRSC25448	2.94	2.32	6529	7035	inactive
CG14759	DRSC06494	4.97	26.1	6644	5465	inactive
scrt	DRSC23001	1.12	3.2	5807	6529	inactive
scrt	DRSC25792	1.86	2.09	6521	6113	inactive
Pop4	DRSC10955	11.2	18.6	5652	5892	inactive
Pop4	DRSC29825	17.6	3.28	6575	6467	inactive
CG10051	DRSC05959	1.67	1.11	6478	6287	inactive
CheB38b	DRSC22874	1.23	0.85	5931	6444	inactive
CG5421	DRSC02858	9.38	2.13	5629	894	inactive
CG5421	DRSC24636	11.3	3.24	6271	6199	inactive
CG4440	DRSC02747	3.54	3.57	1413	5964	inactive
CG4440	DRSC28042	17.3	10.4	2962	5539	inactive
CG31104	DRSC14658	4.35	4.95	6180	6869	inactive
CG31104	DRSC24390	3.67	3.31	6184	7041	inactive
pnr	DRSC17027	20.1	7.4	6206	6379	inactive
pnr	DRSC25347	4.23	2.37	5739	5823	inactive
CG15599	DRSC19668	6.94	12.5	2391	5305	inactive
CG34135 + Nasp	DRSC16397	0.83	0.84	6240	6523	inactive
CG1943	DRSC12576	3.33	0.4	5734	6004	inactive
RpS28b	DRSC18258	2.27	17.4	5691	5663	inactive
RpS28b	DRSC29909	22.1	21.5	5612	5750	inactive
CG6985	DRSC16164	13.3	6.65	6282	6905	inactive
CG6985	DRSC24923	4.56	1.88	6693	6314	inactive
Stoml2	DRSC04326	13.2	30.4	5935	3344	inactive
arg	DRSC18737	24.1	14.8	6406	6847	inactive
arg	DRSC29488		16.2	331	2104	inactive
CG8858	DRSC07290	9.17	6.41	6564	6380	inactive
CG12984	DRSC11693	6.45	5.94	6529	6668	inactive

Quoted from the entries so far for reference:
gene	amplicon	infection score, replicate 1	infection score, replicate 2	cell count, replicate 1	cell count, replicate 2	outcome
Pop4	DRSC10955	11.2	18.6	5652	5892	inactive
Pop4	DRSC29825	17.6	3.28	6575	6467	inactive
CG10051	DRSC05959	1.67	1.11	6478	6287	inactive
